Experimental data taken from patent publication EP0311108A2, “Anti-HIV active 3'-azido-2,6-diaminopurine-2',3'-dideoxyriboside” (Stichting REGA V.Z.W., priority 1987, dated 1989).

Key:
[1] = system: Moloney murine sarcoma virus (MSV); assay: Inhibition of MSV-induced C3H cell transformation; format: cell-based; conditions: ratio of 50% cell toxic dose to 50% antivirally effective dose
Protocol: For transformation of C3H mouse embryo cells by Moloney murine sarcoma virus (MSV), confluent monolayers of C3H cells in 1 ml wells of Tissue Culture Cluster plates were infected with 150 foci-forming units of MSV during 90 min, whereafter medium was replaced by 1 ml fresh culture medium containing different concentrations of test compound. After 6-7 days incubation at 37°C, transformation of the cell cultures was monitored microscopically.

HIV (HTLV-IIIB) = assay: Inhibition of HIV-induced cytopathogenicity in MT4 cells (trypan blue exclusion); format: cell-based; conditions: ratio of 50% cell toxic dose to 50% antivirally effective dose

Row | SMILES | S.I., MSV-induced C3H cell transformation [1] | S.I., HIV-induced cytopathogenicity in MT4 cells (HIV (HTLV-IIIB))
1 | Nc1nc(N)c2ncn([C@H]3CC[C@@H](CO)O3)c2n1 [ddDAPR, 2,6-Diamino-9-(2,3-dideoxy-β-D-glycero-pentofuranosyl)purine] | ≧ 11 | 106
2 | [N-]=[N+]=N[C@H]1C[C@H](n2cnc3c(N)nc(N)nc32)O[C@@H]1CO [AzddDAPR, 2,6-diamino-9-(3-azido-2,3-dideoxy-β-D-erythro-pentofuranosyl)purine] | > 200 | 157
